Pooled drug test results. Numbers come from NIAID ChemDB, via PubChem.

Common to all: cytotoxicity tests; cell line: MOLT-4; measure: CC50

Two numbers with a dash give a range or band.

SMILES,method,value
CCn1cc(C(=O)O)c(=O)c2cc(F)c(N3CCN(c4ccccc4OC)CC3)c(OC(F)F)c21,,8.1 µM
CCCCC(=O)OC1CC(OC(C)C(C)C(O)C(C)C(O)C(C)C2OC(=O)/C=C/CC(O)CC(O)CC(O)CCC(C)C(O)C[C@@]3(O)O[C@H](CC(O)CC(OC(=O)CC(=O)O)CCCC(O)C4OC4C2C)C[C@H](O)[C@H]3O)OC(C)C1O,,>100 µg/mL
Cn1cc(C(=O)O)c(=O)c2cc(F)c(N3CC=C(c4ccccc4)CC3)c(C(F)(F)F)c21,,1.9 µM
O=S(=O)(c1cccc2cnccc12)N1CCNCC1,,8.4 µg/mL
C=CCOc1c(O)ccc2c1OC[C@]1(O)Cc3cc4c(cc3C21)OC(C)(C)O4,MTT,51.4 µM
OC[C@H]1O[C@@H](n2c(Br)nc3cc(Cl)c(Cl)cc32)[C@H](O)[C@@H]1O,,35–72 µM
CC(C)Nc1nc2c(Br)c(Cl)c(Cl)cc2n1[C@@H]1OC[C@@H](O)[C@H]1O,,13 µM
CC(C)Nc1nc2cc(Cl)c(Cl)cc2n1[C@H]1O[C@@H](CO)[C@H](O)[C@@H]1O,,35–72 µM
Cn1c2ccccc2c(=O)c2c(O)cccc21,,14.8 µg/mL
COC(=O)[C@@H](NC(=O)[C@@H](NC(=O)[C@@H](C)NC[C@H](O)[C@H](Cc1ccccc1)NC(=O)[C@H](C)NC(=O)OCc1ccccc1)C(C)C)C(C)C,,>100 µM
CC(C)Nc1nc2cc(Cl)c(Cl)cc2n1[C@@H]1OC[C@@H](O)[C@H]1O,,84 µM
COP(=O)(c1cc(C)cc(CCC#N)c1)c1c(C(N)=O)[nH]c2ccc(Cl)cc12,MTS,14.8 µM
CCN(C)c1nc(N)nc2c1ncn2[C@H]1C[C@H](O)[C@@H](CO)S1,,>100 µM
COC(=O)[C@@H](NC(=O)[C@@H](NC(=O)CNC[C@H](O)[C@H](Cc1ccccc1)NC(=O)[C@H](C)NC(=O)OCc1ccccc1)C(C)C)C(C)C,,>100 µM
Nc1nc(NC2CC2)c2ncn([C@H]3C[C@H](O)[C@@H](CO)S3)c2n1,,<100 µM
COc1ccccc1N1CCN(c2c(F)cc3c(=O)c(C(=O)O)cn(C)c3c2CN(C)C)CC1,,9.7 µM

Repeating the final 2 entries:

SMILES | method | value
Nc1nc(NC2CC2)c2ncn([C@H]3C[C@H](O)[C@@H](CO)S3)c2n1 |  | <100 µM
COc1ccccc1N1CCN(c2c(F)cc3c(=O)c(C(=O)O)cn(C)c3c2CN(C)C)CC1 |  | 9.7 µM

Blank or dashed fields: not listed here. CCn: concentration that lowers growth or viability of the cells by n%. Neighbouring rows are from separate reports.